In patent US20230218652A1, “ANTIFUNGAL PRODRUGS” (CENTRE NATIONAL DE LA RECHERCHE SCIENTIFIQUE, priority 2020, published 2023):

Test system: β-N-acetylhexosaminidase from Canavalia ensiformis E.C. 3.2.1.52
Assay: Enzymatic release of AmB from the prodrug
Assay type: biochemical
Settings: 150 μM, 0.07 U enzyme, 37° C., pH 7.4, 0.1 M PBS, 3% DMSO

CC(=O)N[C@H]1[C@H](Oc2ccc(COC(=O)N[C@@H]3[C@H](O)[C@H](O[C@H]4/C=C/C=C/C=C/C=C/C=C/C=C/C=C/[C@H](C)[C@@H](O)[C@@H](C)[C@H](C)OC(=O)C[C@H](O)C[C@H](O)CC[C@@H](O)[C@H](O)C[C@H](O)C[C@]5(O)C[C@H](O)[C@@H](C(=O)O)[C@H](C4)O5)O[C@H](C)[C@H]3O)cc2[N+](=O)[O-])O[C@H](CO)[C@@H](O)[C@@H]1O [Compound 1]
release of AmB from the prodrug by β-N-acetylhexosaminidase (in words) (listed as prodrug): quickly released | release of AmB from the prodrug by β-N-acetylhexosaminidase (in words) (listed as prodrug 1): confirmed
